Data source: PubChem BioAssay AID624099 (ICCB-Longwood, 2012)
Shown is an unselected part of about 21,000 reagents. 497 of them (2.4%) were called active. 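Higher z means weaker E2 silencing; only reporter increases were scored, and knock-downs that hurt cell survival may mask genuine repressor factors.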 Entries without a mark were called inactive. Reagent sequences are not shown.

Screen: 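Human genes that papillomavirus E2 requires to repress the HPV18 LCR promoter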 (primary screen)
System: human C33A cervical carcinoma cells (HPV-negative) stably expressing BPV1 E2 and an HPV18 LCR luciferase reporter
Knock-down reagent: siRNA pool against human genes, 40 nM
Duration: 72 h
Measurement: 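HPV18 LCR reporter light per well, converted to plate-wise z-scores that exclude control wells, and averaged over triplicate plates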
Scale: mean z-score and z-score: higher = stronger reporter signal, weaker E2 silencing
Active means: 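Mean z ≥ 2 together with z ≥ 2 in two or more of the three replicates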

gene symbol	mean z-score	z-score, replicate A	z-score, replicate B	z-score, replicate C
RTCB (RNA 2',3'-cyclic phosphate and 5'-OH ligase)	-0.18	0.05	-0.79	0.22
PHOX2A (paired like homeobox 2A)	0.22	0.41	0.29	-0.03
SIRAL1 (SIR2 antiphage like 1)	0.07	0.11	-0.22	0.32
TLR9 (toll like receptor 9)	0.28	0.47	0.21	0.15
UNQ9370 (retired record)	-0.31	-0.36	-0.24	-0.32
CYP8B1 (cytochrome P450 family 8 subfamily B member 1)	1.39	1.21	1.3	1.68
CHRNE (cholinergic receptor nicotinic epsilon subunit)	1.14	1.02	1.11	1.28
RRAS (RAS related)	1.12	1.43	1.09	0.83
POU6F1 (POU class 6 homeobox 1)	-0.81	-0.89	-0.69	-0.86
SPRYD4 (SPRY domain containing 4)	0.26	-0.02	0.8	0
SOFU1 (sperm-oocyte fusion factor 1)	-0.32	-0.03	-0.12	-0.8
POC1A (POC1 centriolar protein A)	0.39	0.14	0.33	0.7
SFRP4 (secreted frizzled related protein 4)	-1.26	-1.25	-1.07	-1.46
TCAIM (T cell activation inhibitor, mitochondrial)	1.02	1.34	0.71	
CPZ (carboxypeptidase Z)	-0.51	-0.21	-0.58	-0.73
RB1 (RB transcriptional corepressor 1)	-1.18	-1.16	-1.08	-1.31
EEF1A2 (eukaryotic translation elongation factor 1 alpha 2)	0.92	0.83	0.77	1.15
ENTPD6 (ectonucleoside triphosphate diphosphohydrolase 6)	-0.25	-0.26	-0.16	-0.33
MYBPC3 (myosin binding protein C3)	0.23	0.43	0.29	-0.03
RAC1 (Rac family small GTPase 1)	-0.04	-0.18	0.16	-0.08
CLVS2 (clavesin 2)	-0.12	0.09	-0.16	-0.3
CCNT2 (cyclin T2)	3.98 (active)	3.79	4.29	3.87
ARHGEF11 (Rho guanine nucleotide exchange factor 11)	1.04	0.84	1.2	1.08
CNNM2	-0.46	-0.54	-0.28	-0.57
HNF4A (hepatocyte nuclear factor 4 alpha)	-0.08	-0.03	0.12	-0.34
TMEM183A (transmembrane protein 183A)	1.28	0.99	1.79	1.06
LOC402515 (retired record)	0.13	0.48	0	-0.09
AK2 (adenylate kinase 2)	0.3	0.23	0.3	0.38
SMARCAD1 (SNF2 related chromatin remodeling ATPase with DExD box 1)	-1.19	-1.22	-1.19	-1.17
IDS (iduronate 2-sulfatase)	2.31 (active)	2.5	2.17	2.26
SLC24A2	0.56	0.35	0.59	0.72
RILPL2 (Rab interacting lysosomal protein like 2)	0.44	0.16	0.59	0.57
COMMD3 (COMM domain containing 3)	-1.27	-1.45	-1.28	-1.09
UGCG (UDP-glucose ceramide glucosyltransferase)	0.11	0.14	0.04	0.16
SLC6A9	-0.25	-0.09	-0.15	-0.49
CHST10 (carbohydrate sulfotransferase 10)	1.23	1.49	1.17	1.04
ITGA11 (integrin subunit alpha 11)	-0.28	-0.06	-0.56	-0.23
CCDC112 (coiled-coil domain containing 112)	0.33	1.17	-0.08	-0.09
ZNF606 (zinc finger protein 606)	-0.5	-0.36	-0.59	-0.57
KDM4D (lysine demethylase 4D)	1.09	0.93	1.33	1.01
H2AC16 (H2A clustered histone 16)	-0.27	-0.02	-0.5	-0.27
MUC6 (mucin 6, oligomeric mucus/gel-forming (gene/pseudogene))	1	1.38	0.8	0.82
MILR1 (mast cell immunoglobulin like receptor 1)	0.91	1.48	0.63	0.62
CYP3A4 (cytochrome P450 family 3 subfamily A member 4)	0.58	0.76	0.33	0.64
ERMARD (ER membrane associated RNA degradation)	-0.73	-0.68	-0.59	-0.92
ZNF692 (zinc finger protein 692)	-0.06	0.03	-0.09	-0.11
PLCB4 (phospholipase C beta 4)	-1.15	-1.34	-1.05	-1.06
RSKR (ribosomal protein S6 kinase related)	0.77	0.98	0.82	0.5
LOC388726 (retired record)	-0.47	-0.54	-0.45	-0.43
SPINK14 (serine peptidase inhibitor Kazal type 14 (putative))	0.24	-0.28	1.17	-0.18
FXYD6 (FXYD domain containing ion transport regulator 6)	-1.01	-0.81	-1.05	-1.18
PRKRA	-1.17	-1.19	-1.2	-1.13
SNRPN (small nuclear ribonucleoprotein polypeptide N)	-1.21	-1.22	-1.21	-1.2
LITAF (lipopolysaccharide induced TNF factor)	0.43	0.34	0.36	0.61
SLC18B1	0.93	0.55	1.05	1.19
LCAT (lecithin-cholesterol acyltransferase)	0.37	0.3	0.31	0.51
LOC400842 (retired record)	0.41	0.57	0.15	0.52
EP400 (E1A binding protein p400)	5.34 (active)	5.36	4.74	5.92
MT-ND2 (mitochondrially encoded NADH dehydrogenase 2)	0.1	0.42	-0.11	-0.01
SNX4 (sorting nexin 4)	0.48	0.53	0.43	0.49
LOC144631 (retired record)	-0.28	-0.14	-0.15	-0.54
ANXA2R-AS1 (ANXA2R antisense RNA 1)	0.99	1.88	0.57	0.51
LAMB3 (laminin subunit beta 3)	-0.94	-1.06	-0.96	-0.8
GPC2 (glypican 2)	0.09	0.19	0.03	0.06
LUC7L2 (LUC7 like 2, pre-mRNA splicing factor)	0.22	0.47	0.12	0.08
LOC401079 (retired record)	-0.85	-1.03	-0.73	-0.78
ATP10B (ATPase phospholipid transporting 10B (putative))	0.99	1.45	0.85	0.67
PRR7 (proline rich 7, synaptic)	0.5	0.27	0.83	0.4
TXLNG (taxilin gamma)	-1.2	-1.26	-1.37	-0.97
AQR (aquarius intron-binding spliceosomal factor)	1.39	1.27	1.26	1.65
MAP3K19 (mitogen-activated protein kinase kinase kinase 19)	0.76	1.07	0.7	0.51
PLSCR3 (phospholipid scramblase 3)	0.06	-0.04	0.16	0.06
H2AC1 (H2A clustered histone 1)	0.39	0.55	0.41	0.2

5 of these entries, reformatted.
LITAF (lipopolysaccharide induced TNF factor) — mean z-score = 0.43; z-score, replicate A = 0.34; z-score, replicate B = 0.36; z-score, replicate C = 0.61
SLC18B1 — mean z-score = 0.93; z-score, replicate A = 0.55; z-score, replicate B = 1.05; z-score, replicate C = 1.19
LCAT (lecithin-cholesterol acyltransferase) — mean z-score = 0.37; z-score, replicate A = 0.3; z-score, replicate B = 0.31; z-score, replicate C = 0.51
LOC400842 (retired record) — mean z-score = 0.41; z-score, replicate A = 0.57; z-score, replicate B = 0.15; z-score, replicate C = 0.52
EP400 (E1A binding protein p400) — mean z-score = 5.34 (active); z-score, replicate A = 5.36; z-score, replicate B = 4.74; z-score, replicate C = 5.92
